{"sequences": {"note": "Sequences of proteins named here, by UniProt entry; tags and fusion partners are left off. A change or cut given only in a name is not applied to a line headed by its entry.", "UniProt P35743": "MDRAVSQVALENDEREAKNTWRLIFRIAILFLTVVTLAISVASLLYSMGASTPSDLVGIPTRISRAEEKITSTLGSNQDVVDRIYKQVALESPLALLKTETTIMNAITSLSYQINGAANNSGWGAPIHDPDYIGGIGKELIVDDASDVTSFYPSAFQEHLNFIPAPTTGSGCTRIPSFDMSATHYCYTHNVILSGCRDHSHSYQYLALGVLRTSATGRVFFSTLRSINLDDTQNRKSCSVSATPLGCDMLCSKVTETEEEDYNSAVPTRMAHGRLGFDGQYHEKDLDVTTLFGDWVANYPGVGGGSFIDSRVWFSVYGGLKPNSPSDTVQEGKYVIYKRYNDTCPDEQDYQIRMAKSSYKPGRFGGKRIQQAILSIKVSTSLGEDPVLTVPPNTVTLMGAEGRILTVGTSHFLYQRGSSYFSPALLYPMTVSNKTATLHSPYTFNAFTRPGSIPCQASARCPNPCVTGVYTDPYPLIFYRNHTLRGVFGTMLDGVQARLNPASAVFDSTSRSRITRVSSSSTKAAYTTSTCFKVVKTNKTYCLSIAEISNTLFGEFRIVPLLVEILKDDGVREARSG"}, "source": "paper PMC10012260", "about": "(ACS Infectious Diseases, 2023)", "data": [{"tested_on": "NDV La Sota", "assay": "Plaque reduction assay (PRA) in Vero cells", "assay_type": "cell-based, Newcastle disease virus", "details": "ratio between CC50 and IC50 observed in PRA", "values": [{"smiles": "Cc1ccc(C(=O)N[C@H]2C=C(C(=O)O)O[C@@H]([C@H](O)[C@H](O)CO)[C@@H]2NC(=O)C(F)(F)F)cc1", "note": "[Compound 23, 2,6-Anhydro-4-(4-methylbenzamido)-3,4,5-trideoxy-5-(2,2,2-trifluoroacetamido)-D-glycero-D-galacto-non-2-enoic Acid]", "selectivity index (CC50/IC50)": "> 3160"}, {"smiles": "[N-]=[N+]=N[C@H]1C=C(C(=O)O)O[C@@H]([C@H](O)[C@H](O)CO)[C@@H]1NC(=O)C(F)(F)F", "note": "[Compound 9]", "selectivity index (CC50/IC50)": "> 14700"}]}, {"target": "T1, La Sota Clone 30 NDV-HN (Newcastle disease virus, UniProt P35743)", "assay": "not given", "details": "not given", "units": {"IC50": "nM"}, "values": [{"smiles": "O=C(O)C1=C[C@H](NS(=O)(=O)c2ccccc2)[C@@H](NC(=O)C(F)(F)F)[C@H]([C@H](O)[C@H](O)CO)O1", "note": "[Compound 19, 2,6-Anhydro-4-(phenylsulfonamido)-3,4,5-trideoxy-5-(2,2,2-trifluoroacetamido)-D-glycero-D-galacto-non-2-enoic Acid]", "IC50": 600}, {"smiles": "Cc1ccc(C(=O)N[C@H]2C=C(C(=O)O)O[C@@H]([C@H](O)[C@H](O)CO)[C@@H]2NC(=O)C(F)(F)F)cc1", "note": "[Compound 23, 2,6-Anhydro-4-(4-methylbenzamido)-3,4,5-trideoxy-5-(2,2,2-trifluoroacetamido)-D-glycero-D-galacto-non-2-enoic Acid]", "IC50": 60}, {"smiles": "O=C(O)C1=C[C@H](NC(=O)C(F)(F)F)[C@@H](NC(=O)C(F)(F)F)[C@H]([C@H](O)[C@H](O)CO)O1", "note": "[Compound 24, 2,6-Anhydro-3,4,5-trideoxy-4,5-di-(2,2,2-trifluoroacetamido)-D-glycero-D-galacto-non-2-enoic Acid]", "IC50": 200}, {"smiles": "CC(=O)N[C@H]1[C@H]([C@H](O)[C@H](O)CO)OC(C(=O)O)=C[C@@H]1NS(C)(=O)=O", "IC50": 13000}, {"smiles": "CS(=O)(=O)N[C@H]1C=C(C(=O)O)O[C@@H]([C@H](O)[C@H](O)CO)[C@@H]1NC(=O)C(F)(F)F", "IC50": 6300}, {"smiles": "O=C(O)C1=C[C@H](NC(=O)c2ccccc2)[C@@H](NC(=O)C(F)(F)F)[C@H]([C@H](O)[C@H](O)CO)O1", "IC50": 850}, {"smiles": "CC(=O)N[C@H]1C=C(C(=O)O)O[C@@H]([C@H](O)[C@H](O)CO)[C@@H]1NC(=O)C(F)(F)F", "IC50": 1200}, {"smiles": "CC(=O)N[C@H]1[C@H]([C@H](O)[C@H](O)CO)OC(C(=O)O)=C[C@@H]1NC(=O)c1ccc(C)cc1", "IC50": 1100}, {"smiles": "O=C(O)C1=C[C@H](NS(=O)(=O)C(F)(F)F)[C@@H](NC(=O)C(F)(F)F)[C@H]([C@H](O)[C@H](O)CO)O1", "IC50": 11000}]}, {"target": "T1, La Sota Clone 30 NDV-HN", "assay": "not given", "details": "cited from earlier work", "units": {"IC50": "nM"}, "values": [{"smiles": "CC(=O)N[C@H]1[C@H]([C@H](O)[C@H](O)CO)OC(C(=O)O)=C[C@@H]1NS(=O)(=O)c1ccc(C)cc1", "IC50": 180}]}]}
